Our source for the death of animals values is patent US6307014A (priority 1998, dated 2001).

For the data set, the system named is young mice. Nature of the data set: Neurotoxic activity: intracerebral injection in young mice, behavior patterns. Conditions: even at high doses.

With “Gla Cys Cys Gla Asp Gly BrW Cys Cys Thr Ala Ala OHP”, the death of animals result is on record as “did not cause death in any of the animals tested”.
